Reference: PubChem BioAssay AID504761 (Drosophila RNAi Screening Center, 2011)
Screen: 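Genome-wide fly cell screen for genes dengue virus requires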 (primary screen). Cells: D.Mel-2 cells from Drosophila. Reagent: long dsRNA against Drosophila genes. Treatment: infection with dengue virus type 2; dose and infection time not stated. Detection: 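Per well on two replicate plates, imaging gave the percent of cells positive for viral envelope protein, ranked by infection, and a nuclear count of cells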. Reading the numbers: infection score: higher = more virus-infected cells. Rule for the call: 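Low infection ranks in the two replicates (chance level up to 0.065) followed by a retest with a 1.5-fold or larger significant decrease, p below 0.05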. Meaning of the calls: active = confirmed: knock-down lowers infection; inactive = not picked or not confirmed.
In all, the deposit lists about 22,000 reagents; shown is a random part of those that have a named target and a result. In the full data, 116 (0.52%) got an active call. 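Calls depend on retest data that are not deposited; infection was ranked per plate without normalising between plates; the unit of the infection score is not given.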 Further read-outs or replicates are left out here. Reagent sequences are not shown. The record does not give: the amount of reagent, the time to read-out.

After knock-down of l(1)G0196 (GeneID 33137) [SID104200383], the record shows infection score, replicate 1 = 2.7; inactive.
For l(1)G0196 (GeneID 33137) [SID104200420], the values are infection score, replicate 1 = 6.6; inactive.
For l(1)G0196 (GeneID 33137) [SID104200421], the entry reads infection score, replicate 1 = 3.48; inactive.
Silencing of onecut (GeneID 45816) [SID104196967] resulted in: infection score, replicate 1 = 9.95; inactive.
onecut (GeneID 45816) [SID104204616] showed infection score, replicate 1 = 3.07; inactive.
For CG8673 (GeneID 34105) [SID104182897], the values are infection score, replicate 1 = 2.01; inactive.
Depletion of SCAP (GeneID 35529) [SID104184661] came out at: infection score, replicate 1 = 12.4; inactive.
SCAP (GeneID 35529) [SID104184699] scored infection score, replicate 1 = 3.07; inactive.
Depletion of Arf1 (GeneID 40506) [SID104191398] came out at: infection score, replicate 1 = 6.65; inactive.
Knock-down of CG42336 (GeneID 36205) [SID104185065] resulted in: infection score, replicate 1 = 0.27; inactive.
With knock-down of CG42336 (GeneID 36205) [SID104186124] the results were infection score, replicate 1 = 10.6; inactive.
With knock-down of CG42336 (GeneID 36205) [SID104186125], the screen gave infection score, replicate 1 = 7.38; inactive.
After knock-down of CG42336 (GeneID 36205) [SID104207273], the screen gave infection score, replicate 1 = 24.3; inactive.
After knock-down of CG42336 (GeneID 36205) [SID104208078], the record shows infection score, replicate 1 = 16.5; inactive.

3 of these entries in another layout.
{"gene":"Arf1 (GeneID 40506)","PubChem SID":"SID104191398","infection score, replicate 1":6.65,"call":"inactive"}
{"gene":"CG42336 (GeneID 36205)","PubChem SID":"SID104185065","infection score, replicate 1":0.27,"call":"inactive"}
{"gene":"CG42336 (GeneID 36205)","PubChem SID":"SID104186124","infection score, replicate 1":10.6,"call":"inactive"}

The results go on:
Silencing of Rad51D (GeneID 35937) [SID104186632] gave: infection score, replicate 1 = 12.8; inactive.
phu (GeneID 41135) [SID104196182] scored infection score, replicate 1 = 19.2; inactive.
Against CG5149 (GeneID 34013) [SID104182611], the entry reads infection score, replicate 1 = 6.16; inactive.
After knock-down of CG5149 (GeneID 34013) [SID104205722] the results were infection score, replicate 1 = 8.91; inactive.
CG4829 (GeneID 32672) [SID104199712] showed infection score, replicate 1 = 2.74; inactive.
For ppk11 (GeneID 34299) [SID104182529], the entry reads infection score, replicate 1 = 6.96; inactive.
Silencing of GluRIA (GeneID 38742) [SID104190968] gave: infection score, replicate 1 = 2.63; inactive.
